Data reported in article PMC10189885, “Transcription activation by the resistance protein AlbA as a tool to evaluate derivatives of the antibiotic albicidin” (Chemical Science, 2023).

Tested on: S. Typhimurium TA100
Experiment: MIC determination (microdilution)
Type: cell-based
Settings: Salmonella enterica, MHBII, 37 °C, 20 h
Procedure: E. coli growth inhibition assay
liquid culture were conducted.
All assays were set up in triplicates.
scanner (Epson) with argusX.
overnight at 37 °C, 200 rpm shaking.
95 μL of the inoculum were applied
Previously, the dry antibiotic compounds were
The antimicrobial effect of the solvent
Both microdilution trays and agar plates
DNA-Gyrase inhibition testing
The final DMSO concentration was 3%.
AlbA and its mutants were diluted in […]

## COc1c(NC(=O)c2ccc(NC(=O)c3ccc(NC(=O)[C@H](Cc4c[nH]nn4)NC(=O)c4ccc(C#Cc5ccc(C#N)cc5)cc4)cn3)c(OC)c2O)ccc(C(=O)O)c1O [Compound 10]
  MIC: ≤ 0.016 µg/mL

## CC(C)Oc1c(NC(=O)c2ccc(NC(=O)[C@H](Cc3c[nH]nn3)NC(=O)c3ccc(NC(=O)c4ccc(C#N)cc4)cn3)cn2)ccc(C(=O)Nc2ccc(C(=O)O)cc2)c1O [Compound 11]
  MIC: 0.016 µg/mL (≈ 0.0191 µM)

In brackets after ≈: the same amount, converted by molar mass.
